Reference: paper PMC5361215 (Scientific Reports, 2017)

By UniProt entry, the sequences of proteins in these tests, tags left out. Residues count along the entry.
UniProt P06828, 19-539 K108G: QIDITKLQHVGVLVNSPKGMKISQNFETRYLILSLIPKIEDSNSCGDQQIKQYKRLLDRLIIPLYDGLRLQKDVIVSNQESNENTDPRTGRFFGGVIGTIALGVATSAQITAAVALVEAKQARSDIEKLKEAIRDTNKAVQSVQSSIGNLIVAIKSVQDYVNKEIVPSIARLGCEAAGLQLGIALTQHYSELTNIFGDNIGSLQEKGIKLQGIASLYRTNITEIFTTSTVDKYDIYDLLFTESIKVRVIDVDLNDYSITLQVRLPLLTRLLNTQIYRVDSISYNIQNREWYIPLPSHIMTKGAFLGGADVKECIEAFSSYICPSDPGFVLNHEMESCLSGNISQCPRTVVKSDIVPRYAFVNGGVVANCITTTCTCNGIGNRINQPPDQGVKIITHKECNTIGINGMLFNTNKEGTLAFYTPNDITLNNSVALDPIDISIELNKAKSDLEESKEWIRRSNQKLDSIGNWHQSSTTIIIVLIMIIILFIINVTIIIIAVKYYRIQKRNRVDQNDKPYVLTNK

Target: uncleaved HPIV3 F (K108G) (Human parainfluenza 3 virus, UniProt P06828, K108G)
Experiment: Peptide bridging assay: RBC retention on cells expressing HN and uncleaved F
Format: cell-based
Settings: 1 μM peptide, 37 °C 1 h, then zanamivir; 293T cells with HN and F csm K108G; three experiments

## CC[C@H](C)[C@H](NC(=O)[C@H](CO)NC(=O)[C@H](CC(=O)O)NC(=O)[C@H](CC(C)C)NC(=O)[C@H](CCCCN)NC(=O)CNC(=O)[C@H](CC(N)=O)NC(=O)[C@H](CO)NC(=O)[C@H](CCCNC(=N)N)NC(=O)[C@H](CCCNC(=N)N)NC(=O)[C@@H](NC(=O)[C@H](Cc1c[nH]c2ccccc12)NC(=O)[C@H](CCC(=O)O)NC(=O)[C@H](CCCCN)NC(=O)[C@H](CO)NC(=O)[C@H](CCC(=O)O)NC(=O)[C@H](CCC(=O)O)NC(=O)[C@H](CC(C)C)NC(=O)[C@H](CC(=O)O)NC(=O)[C@H](CO)NC(=O)[C@H](CCCCN)NC(=O)[C@H](C)NC(=O)[C@H](CCCCN)NC(=O)[C@H](CC(N)=O)NC(=O)[C@H](CC(C)C)NC(=O)[C@@H](NC(=O)[C@@H](NC(=O)[C@H](CO)NC(=O)[C@@H](NC(=O)[C@H](CC(=O)O)NC(=O)[C@@H](NC(=O)[C@@H]1CCCN1C(=O)[C@H](CC(=O)O)NC(=O)[C@H](CC(C)C)NC(=O)[C@H](C)NC(=O)[C@@H](NC(C)=O)C(C)C)[C@@H](C)CC)[C@@H](C)CC)[C@@H](C)CC)C(C)C)[C@@H](C)CC)C(=O)NCC(=O)N[C@@H](CO)C(=O)NCC(=O)N[C@@H](CO)C(=O)NCC(=O)N[C@@H](CSCC(=O)O[C@H]1CC[C@@]2(C)C(=CC[C@H]3[C@@H]4CC[C@H]([C@H](C)CCCC(C)C)[C@@]4(C)CC[C@@H]32)C1)C(N)=O [VG-Chol]
  RBCs irreversibly bound (peptide bridging): 35%
